# Measurements published in US20140377259A1, “METHODS FOR INHIBITING HIV-1 REPLICATION INVOLVING THE ADMINISTRATION OF AN ANTI-CCR5 RECEPTOR MONOCLONAL ANTIBODY AND SMALL MOLECULE CCR5 RECEPTOR ANTAGONIST” (CytoDyn Inc., priority 2005, published 2014).
# The chains behind the UniProt entries cited, without tags or fusion partners.
# UniProt P51681, whole entry: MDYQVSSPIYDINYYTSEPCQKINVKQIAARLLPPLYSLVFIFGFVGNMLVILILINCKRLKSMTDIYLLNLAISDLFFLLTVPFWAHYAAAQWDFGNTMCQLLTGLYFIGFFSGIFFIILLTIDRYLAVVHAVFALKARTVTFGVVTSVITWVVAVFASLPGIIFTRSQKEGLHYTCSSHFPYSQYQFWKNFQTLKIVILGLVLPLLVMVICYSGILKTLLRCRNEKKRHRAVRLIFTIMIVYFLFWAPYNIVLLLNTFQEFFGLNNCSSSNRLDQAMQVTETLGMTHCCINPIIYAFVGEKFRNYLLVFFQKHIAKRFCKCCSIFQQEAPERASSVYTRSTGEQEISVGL
# B1: PRO 140: humanized IgG4,κ anti-CCR5 monoclonal antibody, humanized version of murine mAb PA14 (antibody, chains of the INN, looked up, V domains shown)
# VH: EVQLVESGGGLVKPGGSLRLSCAASGYTFSNYWIGWVRQAPGKGLEWIGDIYPGGNYIRNNEKFKDKTTLSADTSKNTAYLQMNSLKTEDTAVYYCGSSFGSNYVFAWFTYWGQGTLVTVSS
# VL: DIVMTQSPLSLPVTPGEPASISCRSSQRLLSSYGHTYLHWYLQKPGQSPQLLIYEVSNRFSGVPDRFSGSGSGTDFTLKISRVEAEDVGVYYCSQSTHVPLTFGQGTKVEIK
# Target: T1, CCR5 (Homo sapiens, UniProt P51681)
# T1 construct: host or cells: CEM.NKR (human T cell leukemia line), transduced with CCR5
# Experiment: Competition binding: inhibition of 3H-UK-427,857 binding to CEM.NKR-CCR5 cells
molecule,measurement,value
B1,"EC50 for 3H-UK-427,857 binding relative to antiviral IC50",5-10 fold
